Measurements reported in PubChem BioAssay AID588549 (Broad Institute, 2011).
The list shows a part of the results, in another mix than the full data. The source made the active and inactive calls. No stated cut-off is given here; in the data, active means inhibition above about 8.5% (passing the limit was not always enough); inconclusive means no clear call, values can overlap the other calls.

What follows are compounds tested on Mycobacterium tuberculosis FadD28 fatty-acid-AMP ligase (assay: inhibitors of FadD28 bisubstrate probe binding, primary screen, biochemical, fluorescence polarization, single point (AID 588549)). Settings: at 12.5 µM, hits give high values.
`CCCCn1nnnc1C(c1ccnc2ccccc12)N1CCC(n2c(=O)[nH]c3ccccc32)CC1` (stereo not given) was tested, and the inhibition was inactive: -5.23%. `COc1cc(OC)c(C(=O)NCC2(N(C)C)CCCCC2)cc1OC` was tested, and the inhibition was inactive: 0.157%. With `O=C(NCC1(N2CCOCC2)CCCCC1)c1cc(F)c(F)cc1Cl` the inhibition was inactive: -2.82%. In the case of `CCC(c1nnnn1C(C)(C)C)N1CCC(n2c(=O)[nH]c3ccccc32)CC1` (stereo not given), the inhibition is reported as inactive: -1.85%. In the case of `COc1ccc(CN(CCCl)CCCl)cc1Cl`, the inhibition is reported as inactive: -3.69%. In the case of `CN(C)c1cccc(C(=O)NCC2(N3CCCCC3)CCCCC2)c1`, the inhibition is reported as inactive: -0.579%. With `CC(C)c1ccc(NC2CCN(C(=O)OC(C)(C)C)CC2)cc1` the inhibition was inactive: -0.81%. For `CCCCn1nnnc1C(c1ccccc1OC(F)(F)F)N1CCC(n2c(=O)[nH]c3ccccc32)CC1` (stereo not given), the inhibition was inactive: -2.42%. With `Cc1ccc(C(=O)NCC2(N(C)C)CCCCC2)o1` the inhibition was inactive: 1.06%. In the case of `CCCOc1ccc(C(=O)NCC2(N(C)C)CCCCC2)cc1OC`, the inhibition is reported as inactive: -1.45%. For `COc1ccc(C(c2nnnn2C2CCCC2)N2CCC(n3c(=O)[nH]c4ccccc43)CC2)cc1` (stereo not given), the inhibition was inactive: -0.131%. For `O=C(NCC1(N2CCCCC2)CCCCC1)c1cncc(Br)c1`, the inhibition was inactive: -4.07%. For `CN1CCC(Nc2cccc(F)c2)CC1`, the inhibition was inactive: 2.25%. In the case of `CSc1ccc(C(=O)NCC2(N3CCOCC3)CCCCC2)cc1`, the inhibition is reported as inactive: 1.13%. In the case of `O=C(NCC1(N2CCCCC2)CCCCC1)c1cccc([N+](=O)[O-])c1`, the inhibition is reported as inactive: -0.268%. For `CCN1CCC(Nc2ccc(Cl)cc2)CC1`, the inhibition was inactive: -1.84%. In the case of `N#CC1(Nc2ccccc2)CCN(CCc2ccccc2)CC1`, the inhibition is reported as inactive: -2.96%. For `O=c1[nH]c2ccccc2n1C1CCN(C(c2ccccc2OC(F)(F)F)c2nnnn2C2CCCC2)CC1` (stereo not given), the inhibition was inactive: -0.655%. In the case of `CC(C)(C)n1nnnc1C(c1ccccc1OC(F)(F)F)N1CCC(n2c(=O)[nH]c3ccccc32)CC1` (stereo not given), the inhibition is reported as inactive: -2.7%. In the case of `O=C(NCC1(N2CCCCC2)CCCCC1)c1ccc(OC(F)F)cc1`, the inhibition is reported as inactive: -2.87%. For `CCCCn1nnnc1C(c1cccc2ccccc12)N1CCC(n2c(=O)[nH]c3ccccc32)CC1` (stereo not given), the inhibition was inactive: -5.54%. `CN1CCN(CCOC(=O)C(O)(c2ccccc2)c2ccccc2)CC1` was tested, and the inhibition was inactive: -2.56%. With `CC(C)c1ccc(C(=O)NCC2(N3CCOCC3)CCCCC2)cc1` the inhibition was inactive: -2.16%. `COc1ccc(NC2CCN(C(=O)OC(C)(C)C)CC2)cc1` was tested, and the inhibition was inactive: -3.68%. With `O=C(NCC1(N2CCOCC2)CCCCC1)c1cc(=O)[nH]c2ccccc12` the inhibition was inactive: -1.11%.
